Measured data: PubChem BioAssay AID624099 (ICCB-Longwood, 2012)
Purpose: 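Knock-downs relieving repression by E2 of an HPV18 LCR luciferase reporter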 (primary screen). Cells: human C33A cervical carcinoma cells (HPV-negative) stably expressing BPV1 E2 and an HPV18 LCR luciferase reporter. Reagent: siRNA pool against human genes, 40 nM. Timing: 72 h. Read-out: 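HPV18 LCR reporter light per well, converted to plate-wise z-scores that exclude control wells, and averaged over triplicate plates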. Scale: mean z-score and z-score: higher = stronger reporter signal, weaker E2 silencing. Rule for the call: 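Hit if mean z-score reaches 2 and two or more of three replicate z-scores also reach 2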.
Shown is one part, drawn at random, of about 21,000 deposited reagents. 497 of them (2.4%) count as active. 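Higher z means weaker E2 silencing; only reporter increases were scored, and knock-downs that hurt cell survival may mask genuine repressor factors.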 No sequences are given here.

no.	gene symbol	PubChem SID	mean z-score	z-score, replicate A	z-score, replicate B	z-score, replicate C	outcome
1	SPATA7	SID134318034	1.76	1.66	1.93	1.7	inactive
2	RPL10P17	SID134326938	-0.79	-0.84	-0.67	-0.84	inactive
3	H2BC5	SID134317372	0.72	0.74	0.57	0.85	inactive
4	HIVEP3	SID134318506	-0.7	-0.8	-0.4	-0.91	inactive
5	MS4A6A	SID134317143	-0.89	-1.06	-0.88	-0.73	inactive
6	FER1L5	SID134325524	-0.77	-0.92	-0.7	-0.68	inactive
7	CEP135	SID134318681	1.1	0.68	1.48	1.14	inactive
8	MYEOV	SID134320541	0.03	0.3	-0.08	-0.12	inactive
9	TIMM13	SID134314270	0.27	0.3	0.49	0.01	inactive
10	FOXL2NB	SID134327369	-1.93	-1.75	-2.13	-1.92	inactive
11	ALPP	SID134309903	-0.3	-0.24	-0.47	-0.2	inactive
12	GRIK4	SID134311611	-0.38	-0.13	-0.57	-0.43	inactive
13	TMEM178A	SID134320548	-0.87	-0.64	-0.9	-1.05	inactive
14	OR1D4	SID134313902	-1.69	-1.77	-1.97	-1.33	inactive
15	PRM3	SID134329470	-0.71	-1.35	-0.78	-0.02	inactive
16	SYNGR1	SID134316227	-0.04	0.07	-0.08	-0.12	inactive
17	METTL22	SID134318475	-1.4	-1.22	-1.48	-1.51	inactive
18	PTCHD3	SID134312848	-0.96	-1.16	-0.79	-0.94	inactive
19	PCDHGB1	SID134317523	-0.83	-0.99	-0.93	-0.56	inactive
20	PPHLN1	SID134324898	0.04	0.17	-0.54	0.5	inactive
21	RPL6P22	SID134328846	-5.77	-5.71	-5.85	-5.75	inactive
22	KLF5	SID134317791	-0.31	-0.31	-0.31	-0.31	inactive
23	DUSP23	SID134312845	0.35	0.69	0.24	0.12	inactive
24	CLPTM1	SID134315092	0.48	0.57	0.33	0.54	inactive
25	LOC388277 (retired record)	SID134328656	0.22	0.11	0.14	0.42	inactive
26	MYOF	SID134317803	1.95	1.9	1.58	2.36	inactive
27	FNDC3B	SID134321764	-1.08	-0.79	-1.41	-1.04	inactive
28	ZCCHC13	SID134329258	0.36	0.43	0.39	0.25	inactive
29	MDC1	SID134309934	0.64	0.65	0.6	0.68	inactive
30	TPBG	SID134310381	-0.28	-0.03	-0.53	-0.26	inactive
31	JAM3	SID134321290	1.27	1.45	1.28	1.07	inactive
32	WASHC3	SID134324530	-0.39	-0.76	-0.17	-0.24	inactive
33	PDLIM2	SID134315222	0.15	0.25	-0.01	0.22	inactive
34	ESCO2	SID134326379	-0.9	-0.94	-1.01	-0.75	inactive
35	LRIT3	SID134326838	0	-0.24	0	0.23	inactive
36	SLC25A52	SID134328861	-0.83	-0.95	-1.04	-0.5	inactive
37	TBC1D16	SID134323210	-0.69	-0.65	-0.8	-0.61	inactive
38	PRMT2	SID134310236	0.36	0.37	0.3	0.43	inactive
39	BBOX1	SID134315807	0.83	0.82	0.85	0.81	inactive
40	LOC389070 (retired record)	SID134327267	-1.38	-1.81	-1.36	-0.96	inactive
41	OR4K1	SID134329834	-0.98	-1.23	-0.58	-1.14	inactive
42	UNC5A	SID134326035	-0.4	-0.38	-0.61	-0.21	inactive
43	ETNK2	SID56478982	-1.13	-1	-1.47	-0.91	inactive
44	ZCCHC2	SID134326899	0.66	0.84	0.66	0.48	inactive
45	ZCCHC2	SID134328876	-0.35	-0.88	0.04	-0.21	inactive
46	CFAP46	SID134322218	-0.39	-0.44	-0.31	-0.41	inactive
47	CFAP46	SID134322264	-0.81	-1.15	-0.78	-0.49	inactive
48	ATP1B2	SID134314831	0.35	0.43	0.45	0.18	inactive
49	ZSCAN22	SID134312296	0.34	0.51	0.41	0.1	inactive
50	ERBB3	SID56478507	-1.41	0.95	0.73	-5.92	inactive
51	TBC1D4	SID134324832	0.84	0.91	0.8	0.81	inactive
52	MYRF	SID134324343	-0.8	-0.61	-0.89	-0.9	inactive
53	MT-ATP6	SID134317073	-0.23	-0.71	0.16	-0.13	inactive
54	MYCBP2	SID134312077	-0.45	-0.24	-0.92	-0.19	inactive
55	TOP1MT	SID134313920	2.55	3.02	2.51	2.13	active
56	B4GAT1	SID134316587	0.59	0.63	0.51	0.63	inactive
57	HNRNPAB	SID134317707	0.11	0.27	-0.05	0.09	inactive
58	LINC01010	SID134327630	0.69	0.38	0.75	0.96	inactive
59	YTHDC1	SID134319378	1.41	1.53	1.17	1.54	inactive
60	BCL2L12	SID134321157	-1.17	-0.87	-1.17	-1.47	inactive
61	RNF8	SID134312028	-1.13	-0.93	-1.18	-1.26	inactive
62	MPC1	SID134324158	-0.58	-0.65	-0.31	-0.77	inactive
63	PAGE4	SID134316622	-0.47	-0.56	-0.5	-0.34	inactive
64	ZYG11B	SID134325177	-0.01	-0.06	0.07	-0.04	inactive
65	ELOA2	SID134310766	-0.18	-0.03	-0.02	-0.48	inactive
66	FAT3	SID134326634	0.52	0.78	0.48	0.31	inactive
67	FAT3	SID134326637	1.98	1.84	1.61	2.5	inactive
68	TEP1	SID134316653	2.09	2.08	2.07	2.13	active
69	SSRP1	SID134316101	-1.72	-1.8	-1.36	-2	inactive
70	TEFM	SID134318568	0	0.15	-0.21	0.07	inactive
71	MPDU1	SID134323636	0.84	0.88	0.91	0.73	inactive
72	DNAI7	SID134326764	-1.11	-1.21	-1.32	-0.8	inactive
73	CRYBA1	SID134317306	0.27	0.24	0.36	0.22	inactive

7 neighbouring records from above, for reference:
no.	gene symbol	PubChem SID	mean z-score	z-score, replicate A	z-score, replicate B	z-score, replicate C	outcome
31	JAM3	SID134321290	1.27	1.45	1.28	1.07	inactive
32	WASHC3	SID134324530	-0.39	-0.76	-0.17	-0.24	inactive
33	PDLIM2	SID134315222	0.15	0.25	-0.01	0.22	inactive
34	ESCO2	SID134326379	-0.9	-0.94	-1.01	-0.75	inactive
35	LRIT3	SID134326838	0	-0.24	0	0.23	inactive
36	SLC25A52	SID134328861	-0.83	-0.95	-1.04	-0.5	inactive
37	TBC1D16	SID134323210	-0.69	-0.65	-0.8	-0.61	inactive
